Measured values from several laboratories, pooled; numbers as filed in NIAID ChemDB.

Shared fields: tests on isolated targets; species: HIV-1; target: Reverse transcriptase; read by: RT activity / fluorescence; endpoint: IC50

Conditions beyond the fields shown may differ between rows. Blank or dashed fields: not listed here. ICn: concentration for n% inhibition.

structure | strain | value
O=C(O)c1cc2cc(O)c(O)cc2[nH]1 | - | 82 µM
CCn1cc(C(=O)O)c(=O)c2cc(I)c(Oc3ccnc(Nc4ccc(C#N)cc4)n3)cc21 | - | 0.37 µM
Oc1cc(O)c2c(c1)O[C@@H](c1ccc(O)c(O)c1)[C@@H](O)C2 | - | >100 µg/mL
CC(C)(C)n1cc(C(=O)O)c(=O)c2cc(I)c(Oc3ccnc(Nc4ccc(C#N)cc4)n3)cc21 | - | 6.3 µM
COc1ccc([C@@H]2CC(=O)c3c(O)cc(O)cc3O2)cc1O | - | >100 µg/mL
N#Cc1ccc(Nc2nccc(Oc3cc4c(cc3Br)c(=O)c(C(=O)O)cn4C3CCCC3)n2)cc1 | - | 2.81 µM
Cc1cc(/C=C/C#N)cc(C)c1Oc1ccnc(S(=O)(=O)CC(=O)Nc2ccc(F)cc2)n1 | - | 0.197 µM
CCn1cc(C(=O)O)c(=O)c2cc(Br)c(Oc3ccnc(Nc4ccc(C#N)cc4)n3)cc21 | - | 0.41 µM
O=c1c(O)c(-c2ccc(O)c(O)c2)oc2cc(O)cc(O)c12 | - | 0.7 µM
N#Cc1ccc(Nc2nc(Oc3ccc(-c4ccc(C#N)cc4)cc3[N+](=O)[O-])c3sccc3n2)cc1 | IIIB | 0.063 µM
O=C(NCCCN1CCN(CCCNC(=O)c2cc3cc(O)c(O)cc3[nH]2)CC1)c1cc2cc(O)c(O)cc2[nH]1 | - | >100 µM
CC(=O)O[C@H]1CC[C@]2(C)C3CC=C4C5[C@@H](C)[C@H](C)CC[C@]5(C(=O)O)CC[C@@]4(C)[C@]3(C)CC[C@H]2C1(C)C | MC99 | 210 µM
Oc1cc(O)c2c(c1)O[C@H](c1ccc(O)c(O)c1)[C@H](O)C2 | - | >100 µg/mL
N#Cc1cc(Cl)cc(Oc2cc(OS(=O)(=O)F)ccc2Cl)c1 | IIIB | 0.883 µM
CCC(C)n1cc(C(=O)O)c(=O)c2cc(I)c(Oc3ccnc(Nc4ccc(C#N)cc4)n3)cc21 | - | 1.38 µM
O=C(O[C@@H]1Cc2c(O)cc(O)cc2O[C@@H]1c1cc(O)c(O)c(O)c1)c1cc(O)c(O)c(O)c1 | - | 11.7 µg/mL
CCCCn1cc(C(=O)O)c(=O)c2cc(I)c(Oc3ccnc(Nc4ccc(C#N)cc4)n3)cc21 | - | 0.51 µM
O=c1cc(-c2ccc(O)c(O)c2)oc2cc(O)cc(O)c12 | - | >100 µg/mL
Cc1cc(-c2ccc(C#N)cc2)cc(C)c1Oc1nc(Nc2ccc(C#N)cc2)nc2ccsc12 | IIIB | 0.044 µM
O=c1c(-c2ccc(O)cc2)coc2cc(O)cc(O)c12 | - | >100 µg/mL
Cc1cc(-c2ccc(C#N)cc2)cc(C)c1Oc1ccnc(S(=O)(=O)CC(=O)Nc2ccc(C#N)cc2)n1 | - | 0.142 µM
CC(C)n1cc(C(=O)O)c(=O)c2cc(Br)c(Oc3ccnc(Nc4ccc(C#N)cc4)n3)cc21 | - | 1.39 µM

A second listing of 3 rows from above:

Cc1cc(-c2ccc(C#N)cc2)cc(C)c1Oc1nc(Nc2ccc(C#N)cc2)nc2ccsc12 ; strain: IIIB ; value: 0.044 µM
O=C(NCCCN1CCN(CCCNC(=O)c2cc3cc(O)c(O)cc3[nH]2)CC1)c1cc2cc(O)c(O)cc2[nH]1 ; value: >100 µM
CCC(C)n1cc(C(=O)O)c(=O)c2cc(I)c(Oc3ccnc(Nc4ccc(C#N)cc4)n3)cc21 ; value: 1.38 µM